{
  "source": "patent US20140328795A1",
  "about": "“VIRUCIDAL SMALL MOLECULE AND USES THEREOF” (The Texas A&M University System, priority 2012, published 2014)",
  "key": {"HIV-1 (NL4.3)": {"system": "HIV-1 (NL4.3)", "experiment": "Drug resistance study"}, "primary HIV-1 isolates": {"system": "primary HIV-1 isolates", "experiment": "HIV-1 infectivity assay in TZM-bl cells (β-galactosidase)", "assay_type": "cell-based", "conditions": "CC50 from human cell lines"}},
  "data": [
    {"compound": "N=C1Sc2ccccc2C2=NCCCN12", "note": "[PD, PD 404,182]", "values": [
      {"measurement": "emergence of PD-resistant HIV-1 variants", "setting": "HIV-1 (NL4.3); TZM-bl cells passaged with 1, 5 and 10 μM PD for 60 days", "value": "No PD-resistant variants could be detected"},
      {"measurement": "emergence of PD-resistant HIV-1 variants", "setting": "HIV-1 (NL4.3); freshly activated human PBMCs (2 donors), 12 days (data not shown)", "value": "no emergence of viral resistance was observed"},
      {"measurement": "selectivity / therapeutic index (CC50/IC50)", "setting": "primary HIV-1 isolates", "value": "> 300"}
    ]}
  ]
}
